Compound potency records, mixed from different reports. Data source: NIAID ChemDB in PubChem.

Shared fields: enzyme or target tests; agent: Human cytomegalovirus; protein: Polymerase; endpoint: IC50

Blank or dashed fields: not listed here. Lines come from different laboratories, so protocols vary. ICn is the concentration giving n% inhibition.

{"structure": "N/C(=N\\OC(=O)c1cccc(Cl)c1Cl)c1ccc(Cl)cc1Cl", "method": "scintillation proximity / radiometric", "result": "10 µM"}
{"structure": "CN(C)n1cc(C(=O)NCc2ccc(Cl)cc2)c(=O)c2cc(C#CCO)ccc21", "result": "2.3 µM"}
{"structure": "O=C(NCc1ccc(Cl)cc1)c1c[nH]c2c(F)cc(-c3ccco3)cc2c1=O", "result": ">50 µM"}
{"structure": "O=C(NCc1ccc(Cl)cc1)c1cn(N2CCOCC2)c2ccc(CN3CCOCC3)cc2c1=O", "result": "0.3 µM"}
{"structure": "O=C(NCc1ccc(Cl)cc1)c1cn2c3c(cc(CN4CCOCC4)cc3c1=O)CN(Cc1ccccc1)C2=O", "result": ">20 µM"}
{"structure": "Cc1ccccc1/C(N)=N\\OC(=O)c1cccc2ccccc12", "method": "scintillation proximity / radiometric", "result": ">100 µM"}
{"structure": "Cc1nc2[nH]cc(C(=O)NCc3ccc(Cl)cc3)c(=O)c2cc1Br", "result": ">20 µM"}
{"structure": "O=C(Nc1nnc(NCCC(c2ccccc2)c2ccccc2)s1)c1ccc(I)cc1", "result": ">25 µM"}
{"structure": "Nn1cc(C(=O)NCc2ccc(Cl)cc2)c(=O)c2cc(C#CCO)ccc21", "result": "1 µM"}
{"structure": "CCOc1ccc2ccccc2c1C(=O)Nc1nnc(NCC2CC2)s1", "result": ">25 µM"}
{"structure": "O=C(NCc1ccc(Cl)cc1)c1n[nH]c2ccccc2c1=O", "result": "90 µM"}
{"structure": "CN(Cc1cc2c3c(c1)c(=O)c(C(=O)NCc1ccc(Cl)cc1)cn3CC(=O)N2C)C[C@@H](O)c1cnccn1", "result": "0.14 µM"}
{"structure": "COc1cccc(C(=O)O/N=C(\\N)c2ccc(Cl)cc2Cl)c1OC", "method": "scintillation proximity / radiometric", "result": ">100 µM"}
{"structure": "CN(Cc1cc2c3c(c1)c(=O)c(C(=O)NCc1ccc(Cl)cc1)cn3CC(=O)N2C)CC(O)c1ccc(O)cc1", "result": "0.081 µM"}
{"structure": "N/C(=N/OC(=O)c1cccc2ccccc12)c1ccc(Cl)cc1Cl", "method": "scintillation proximity / radiometric", "result": "3.1 µM"}
{"structure": "O=C(NCc1ccc(Cl)cc1)c1c[nH]c2ccc(C#CCO)cc2c1=O", "result": "0.95 µM"}
{"structure": "O=C(NCc1ccc(Cl)cc1)c1n[nH]c2ccc(CO)cc2c1=O", "result": "51 µM"}
{"structure": "O=C(Nc1nnc(NCc2ccncc2)s1)c1ccc(I)cc1", "result": ">25 µM"}
{"structure": "CN(Cc1cc2c3c(c1)c(=O)c(C(=O)NCc1ccc(Cl)cc1)cn3CC(=O)N2C)C[C@@H](O)c1cccnc1", "result": "0.113 µM"}
{"structure": "O=C(NCc1ccc(Cl)cc1)c1c[nH]c2c(F)cc(CCCO)cc2c1=O", "result": "0.26 µM"}
{"structure": "O=C(NCc1ccc(Cl)cc1)c1cn(CCCSc2ccccc2)c2ccc(CN3CCOCC3)cc2c1=O", "result": "3 µM"}
{"structure": "COc1cc2ccccc2cc1C(=O)NCc1ccc(Cl)cc1", "result": "2.4 µM"}
{"structure": "CCS(=O)(=O)CCCn1cc(C(=O)NCc2ccc(Cl)cc2)c(=O)c2cc(CN3CCOCC3)ccc21", "result": "0.9 µM"}
{"structure": "O=C(NCc1ccc(Cl)cc1)c1cn(N2CCOCC2)c2ccc(CC3CCOCC3)cc2c1=O", "result": "0.2 µM"}
{"structure": "O=C(NCc1ccc(Cl)cc1)c1c[nH]c2ccc(CCCO)cc2c1=O", "result": "0.35 µM"}
{"structure": "COc1ccccc1C(=O)Nc1nnc(NCCc2c[nH]c3ccccc23)s1", "result": ">25 µM"}
{"structure": "N/C(=N/OC(=O)c1ccccc1)c1ccc(Cl)cc1Cl", "method": "scintillation proximity / radiometric", "result": "22 µM"}
{"structure": "O=C(Nc1nnc(NCc2ccc(F)cc2)s1)c1cc2ccccc2s1", "result": ">25 µM"}
{"structure": "Cc1ccc(/C(N)=N\\OC(=O)c2cccc3ccccc23)cc1", "method": "scintillation proximity / radiometric", "result": "100 µM"}
{"structure": "Cn1cc(C(=O)NCc2ccc(Cl)cc2)c(=O)c2cc(CN3CCOCC3)ccc21", "result": "0.37 µM"}
{"structure": "O=C(CCCCCl)Nc1nnc(NCc2ccc3c(c2)OCO3)s1", "result": "<25 µM"}
{"structure": "Cc1ccc(/C(N)=N\\OC(=O)c2cccc3ccccc23)c(C)c1", "method": "scintillation proximity / radiometric", "result": "20.4 µM"}

3 of the rows above, restated:

structure | method | result
CCOc1ccc2ccccc2c1C(=O)Nc1nnc(NCC2CC2)s1 |  | >25 µM
O=C(Nc1nnc(NCc2ccc(F)cc2)s1)c1cc2ccccc2s1 |  | >25 µM
CN(Cc1cc2c3c(c1)c(=O)c(C(=O)NCc1ccc(Cl)cc1)cn3CC(=O)N2C)CC(O)c1ccc(O)cc1 |  | 0.081 µM